Measured values from several laboratories, pooled; numbers as filed in NIAID ChemDB.

Common to all: host cell toxicity; cells: HEK 293; measure: CC50

CCn: concentration that lowers growth or viability of the cells by n%.

{"SMILES": "O=c1oc2c(O)c(O)cc3c(=O)oc4c(O)c(O)cc1c4c23", "read by": "ATP", "value": ">26 µM"}
{"SMILES": "C[N+]1=c2cc(N/C=C/c3ccc(O)cc3)c(O)c3c2=C(C=N3)CC1", "read by": "resazurin", "value": "1.4 µM"}
{"SMILES": "CCC(=O)OC1O[C@@H]2OC3(C)CCC4[C@H](C)CCC([C@H]1C)[C@]42OO3", "read by": "ATP / luminescence", "value": ">26 µM"}
{"SMILES": "COc1cc([C@@H]2c3cc4c(cc3C[C@H]3COC(=O)[C@@H]32)OCO4)cc(OC)c1OC", "value": "14.3 µg/mL"}
{"SMILES": "O=c1c2cc(O)c(O)cc2oc2cc(O)cc(O)c12", "read by": "sulforhodamine / absorbance", "value": ">50 µM"}
{"SMILES": "C[N+]1=c2cc(NCCc3ccc(O)cc3)c(O)c3c2=C(C=N3)CC1", "read by": "resazurin", "value": "1.2 µM"}
{"SMILES": "CC1Oc2cc(O)c3c(=O)c4ccc(O)c(O)c4oc3c2C1(C)C", "read by": "sulforhodamine / absorbance", "value": "6.12 µM"}
{"SMILES": "CC[C@H](CC[C@@H](C)[C@H]1CCC2C3CC=C4C[C@@H](O)CC[C@]4(C)[C@@]3(C)CC[C@@]21C)C(C)C", "read by": "ATP", "value": ">26 µM"}
{"SMILES": "Cn1cc2c3c1C(=O)c1[nH]cc(-c4ccc(O)cc4)c1C3=[N+](C)CC2", "read by": "resazurin", "value": "3.6 µM"}
{"SMILES": "C[C@H]1C(OC(=O)c2ccc([N+](=O)[O-])cc2)O[C@@H]2OC3(C)CCC4[C@H](C)CCC1[C@]42OO3", "read by": "ATP / luminescence", "value": ">23.8 µM"}
{"SMILES": "CC(C)=CCC[C@@H](C)[C@@H]1CC[C@]2(C)C3=C(CC[C@@]12C)[C@@]1(C)CC[C@H](O)C(C)(C)[C@@H]1CC3", "read by": "sulforhodamine / absorbance", "value": "37.1 µM"}
{"SMILES": "C[C@H]1C(OC(=O)Cc2ccccc2)O[C@@H]2OC3(C)CCC4[C@H](C)CCC1[C@]42OO3", "read by": "ATP / luminescence", "value": ">26 µM"}
{"SMILES": "CC(C)=CCC/C(C)=C/CC/C(C)=C/CC[C@@]1(C)CCc2cc(O)cc(C)c2O1", "read by": "ATP", "value": ">26 µM"}
{"SMILES": "COc1cc(-c2ccccc2)c(OC)c(OC)c1O", "read by": "sulforhodamine / absorbance", "value": ">50 µM"}
{"SMILES": "CCCCCCCCCC(=O)OC1O[C@@H]2OC3(C)CCC4[C@H](C)CCC([C@H]1C)[C@]42OO3", "read by": "ATP / luminescence", "value": ">26 µM"}
{"SMILES": "C/C(=C\\C=C\\C(C)[C@H]1CC[C@@]2(C)[C@@H]3CC[C@H]4C(C)(C)C(=O)CC[C@]4(C)C3=CC[C@]12C)C(=O)O", "read by": "sulforhodamine / absorbance", "value": ">50 µM"}
{"SMILES": "C[C@@H]1CCC2[C@@H](C)[C@@H](OCCNCCN3CCCCC3)O[C@@H]3OC4(C)CCC1[C@@]23OO4", "read by": "ATP / luminescence", "value": ">13.3 µM"}

Rows are shuffled and stem from different studies.